Experiments:
Omi-20 = assay: SPR; details: domain or fragment
Omi-12 = assay: SPR; details: domain or fragment

Substance “His-tagged SARS-CoV-2 Omicron BA.4/5 RBD (from UniProt P0DTC2 333-526)” has a Kd (Omi-20) of 7.2 nM and a Kd (Omi-12) of 126 nM.
